Results reported in article PMC6271245, “Discovery of Gramine Derivatives That Inhibit the Early Stage of EV71 Replication in Vitro” (Molecules, 2014).

Key:
[1] = system: Enterovirus 71 (EV71); assay: Inhibition of EV71-induced cytopathogenicity (CPE) in Vero cells, MTT; format: cell-based; conditions: selectivity index, ratio CC50/EC50, Vero cells
Procedure: (§1) The antiviral activities of gramine and its derivatives against EV71 based on inhibition of virus-induced cytopathogenicity effects (CPEs) in African green monkey kidney cells (Vero) and rhabdomyosarcoma cells (RD) were examined. The cytotoxic effects were also evaluated. The inhibitory activities expressed as half maximal effective concentration (EC50) values and selectivity indexes (SI) for the target compounds are presented in Table 1, and the dose-dependent antiviral effects are shown in Figure 1A.
Figure 1 Gramine and its synthetic derivatives inhibited virus-induced CPE. (A) Vero cells were infected with 100 TCID50 of EV71 mixed with serial dilutions of tested compounds for 1.5 h at 37 °C; the inoculum was aspirated and cells were incubated with DMEM/tested compounds at 37 °C, 5% CO2 for 48 h pi. The viability of the cells was determined with an MTT assay; (B) Morphology image of Vero and RD cells treated with compounds 4a, 4i, 4r, and 4s for 48 h pi. (magnification, 20×).
(§2) The activity of compounds against EV71 was determined based on the inhibition of virus-induced cytopathogenicity effects (CPEs) in acutely infected cells. Vero and RD cells grown to 90% confluency in 96-well dishes were washed with phosphate buffered saline (PBS) and infected with 100 TCID50 of EV71 mixed with serial dilutions of tested compounds for 1.5 h at 37 °C. The inoculum was aspirated and cells were incubated with DMEM and test compounds at 37 °C, 5% CO2 for 48 h. The CPEs were observed microscopically and the viability of the cells was determined with a 3-(4,5-dimethylthiazol-2-yl)-2,5-diphenyltetrazolium bromide (MTT) assay. The concentrations required for the test compounds to achieve 50% protection from virus-induced cytopathogenicity (EC50) were determined. Adverse effects of these compounds on the host cells were also assessed by means of the MTT-method; by exposing uninfected cells to various concentrations of test compounds for 48 h at 37 °C, the viability of the cells was detected. The 50% cell cytotoxic concentrations (CC50) of compounds were calculated with the SPSS software (SPSS, Chicago, IL, USA). Selectivity indexes were calculated as the ratio of CC50: EC50.
(§3) Cell viability was assessed by an MTT assay, which functions based on the reduction of a MTT into formazan dye by active mitochondria. The cells were treated with 100 µL of MTT (1 mg/mL, Sigma, St. Louis, MO, USA) and incubated at 37 °C for 4 h. The reaction was blocked by DMSO and measured in a microplate reader (Bio-Tek Instruments, Winooski, VT, USA) at 492 nm. The untreated control was arbitrarily set as 100%.

[2] = system: Enterovirus 71 (EV71); assay: Inhibition of EV71-induced cytopathogenicity (CPE) in RD cells, MTT; format: cell-based; conditions: selectivity index, ratio CC50/EC50, RD cells
Procedure: as §1, §2, §3

Row | SMILES | SI Vero [1] | SI RD [2]
1 | Fc1ccc(C(c2c[nH]c3ccccc23)n2cccn2)cc1 (stereo not shown) [Compound 4t] | 5.5 | 4.8
2 | Cn1cc(C(Nc2ccccn2)c2ccccc2Cl)c2ccccc21 (stereo not shown) [Compound 4f] | 6.0 | 
3 | Clc1ccc(C(Nc2ccccn2)c2c[nH]c3ccccc23)cc1 (stereo not shown) [Compound 4c] | 4.0 | 3.7
4 | Clc1ccccc1C(Nc1nc2ccccc2s1)c1c[nH]c2ccccc12 (stereo not shown) [Compound 4p] | 3.1 | 3.7
5 | Cn1cc(C(Nc2ccccn2)c2ccccc2F)c2ccccc21 (stereo not shown) [Compound 4h] | 8.5 | 4.7
6 | NC(=O)c1ncn([C@@H]2O[C@H](CO)[C@@H](O)[C@H]2O)n1 [ribavirin, reference compound] | >11 | 13.6
7 | Cn1cc(C(Nc2nc3ccccc3s2)c2ccccc2F)c2ccccc21 (stereo not shown) [Compound 4r] | 13.4 | 20.5
8 | Cn1cc(C(Nc2ccccn2)c2ccncc2)c2ccccc21 (stereo not shown) [Compound 4o] | 4.3 | 4.1
9 | Fc1ccc(C(c2c[nH]c3ccccc23)n2cncn2)cc1 (stereo not shown) [Compound 4u] | 2.1 | 2.2
10 | c1ccc(C(Nc2nc3ccccc3s2)c2c[nH]c3ccccc23)nc1 (stereo not shown) [Compound 4s] | 14.3 | 15.0
11 | Clc1ccccc1C(Nc1ccccn1)c1c[nH]c2ccccc12 (stereo not shown) [Compound 4b] | 3.6 | 3.1
12 | Cn1cc(C(Nc2ccccn2)c2ccc(C(F)(F)F)cc2)c2ccccc21 (stereo not shown) [Compound 4k] | 1.4 | 2.8
13 | Fc1ccc(C(Nc2ccccn2)c2c[nH]c3ccccc23)cc1 (stereo not shown) [Compound 4e] | 5.6 | 4.8
14 | Fc1ccccc1C(Nc1ccccn1)c1c[nH]c2ccccc12 (stereo not shown) [Compound 4d] | 4.1 | 4.8
15 | Fc1ccccc1C(Nc1nc2ccccc2s1)c1c[nH]c2ccccc12 (stereo not shown) [Compound 4q] | 6.0 | 5.4
16 | Cn1cc(C(Nc2ccccn2)c2ccc(Cl)cc2)c2ccccc21 (stereo not shown) [Compound 4g] | 7.9 | 6.5
17 | FC(F)(F)c1ccc(C(Nc2ccccn2)c2c[nH]c3ccccc23)cc1 (stereo not shown) [Compound 4j] | 1.8 | 2.1
18 | c1ccc(C(Nc2ccccn2)c2c[nH]c3ccccc23)cc1 (stereo not shown) [Compound 4a] | 2.6 | 3.1
19 | Cn1cc(C(Nc2ccccn2)c2ccc(F)cc2)c2ccccc21 (stereo not shown) [Compound 4i] | 12.9 | 10.7
